Test results as given in publication PMC12666128, “Engineering ω-transaminase for efficient dihydroxyacetone transamination in serinol biosynthesis starting from methanol” (Synthetic and Systems Biotechnology, 2025).

Test system: O=C(CO)CO
Assay: purified protein
Settings: DHA as varied substrate; PLP-dependent; variant M3

Work on “Cv-ωTA (Chromobacterium violaceum ATCC 12472; C418F/Y153F/Y168F)” yielded a Km of 7.22 ± 0.13 mM, a kcat of 3.04 s⁻¹ and a kcat/Km of 420 M⁻¹ s⁻¹.
